Structures were worked out from names or drawings and are uncertain.
Experiments:
Stx1B (Stx1 B-subunits) = Stx1B (Stx1 B-subunits) (Bacteriophage H30, UniProt P69178); assay: Isothermal titration calorimetry, glycan titrated into Stx1 B-subunits; type: binding, Escherichia coli O157:H7; settings: ITC
Stx2B (Stx2 B-subunits) = Stx2B (Stx2 B-subunits) (Escherichia phage 933W, UniProt P09386); assay: Isothermal titration calorimetry, glycan titrated into Stx2 B-subunits; type: binding, Escherichia coli O157:H7; settings: ITC

Compound: CC(=O)N[C@H]1[C@H](O[C@H]2[C@@H](O)[C@@H](CO)O[C@H](O[C@@H]3[C@H](O)[C@@H](O)[C@H](O[C@H]4[C@H](O)[C@@H](O)C(O)O[C@@H]4CO)O[C@@H]3CO)[C@@H]2O)O[C@H](CO)[C@H](O)[C@@H]1O (stereo partly shown)
- fold lower affinity compared to Gb3 (Stx1B (Stx1 B-subunits); Stx1B): about 3 fold
- Kd (Stx1B (Stx1 B-subunits); read-out: Kd of Stx1B for glycan, 25°C, one-site model, n = 1 per B subunit): 12 mM
- binding of Stx2B to glycan (Stx2B (Stx2 B-subunits); 25°C, glycan 50 mM): no binding
- Kd (Stx2B (Stx2 B-subunits); read-out: Kd of Stx2B for glycan, bound suggested from absence of binding): > 12 mM
